Source: PubChem BioAssay AID1259414 (Drosophila RNAi Screening Center, 2018)
Aim: 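Host factors increasing or decreasing Wolbachia levels in cultured fly cells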 (primary screen). Cell system: Drosophila JW18 cells infected with Wolbachia. Knock-down reagent: long dsRNA against Drosophila genes, 0.25 µg dsRNA per well of a 384-well plate. Timing: 5 days. Conditions: cells persistently infected with Wolbachia before knock-down; no added drug. Measured: 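Imaged fluorescence in situ signal for Wolbachia 23S rRNA per DAPI-counted host cell, given as a robust z-score within each plate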. Scale: Wolbachia per cell robust z: higher = more Wolbachia per host cell than the plate typical. Active means: 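Active if absolute robust z reaches 1.5 in two or more of three replicates, leaving out multi- or no-target dsRNAs, genes unexpressed in JW18 and A1 wells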.
The deposit covers about 24,000 reagents; shown is an unselected part of those that have a named target and a result. In the full data, about 1,210 (5%) were called active. 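Inactive calls also include excluded dsRNAs with several or no targets, genes unexpressed in JW18, and well A1, regardless of score.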 The numbers tell different reagents against one gene apart.

| gene | reagent | Wolbachia per cell robust z, rep 1 | Wolbachia per cell robust z, rep 2 | Wolbachia per cell robust z, rep 3 | activity call |
| --- | --- | --- | --- | --- | --- |
| side-VI (sidestep VI) | 1 | -3.39 | -0.0707 | -0.395 | inactive |
| side-VI (sidestep VI) | 2 | 0.201 | -1.8 | 0.89 | inactive |
| side-VI (sidestep VI) | 3 | 0.525 | -0.313 | -0.509 | inactive |
| CG15701 | 1 | 0.176 | -1.36 | -1.43 | inactive |
| CG7884 | 1 | 0.124 | -3.06 | -1.34 | inactive |
| CG7884 | 2 | 0.586 | 1.05 | 0.797 | inactive |
| Ufc1 (Ubiquitin-fold modifier conjugating enzyme 1) | 1 | 0.7 | 0.635 | -0.597 | inactive |
| Glo1 (Glyoxalase 1) | 1 | -0.172 | 0.297 | 1.47 | inactive |
| CG11470 | 1 | 0.17 | -0.388 | 0.956 | inactive |
| CG30082 | 1 | -0.162 | 0.27 | 0.128 | inactive |
| Cpr97Ea (Cuticular protein 97Ea) | 1 | 0.89 | 0.254 | 1.37 | inactive |
| Cpr97Ea (Cuticular protein 97Ea) | 2 | 0.0448 | -9.66 | -1.23 | inactive |
| Gr9a (Gustatory receptor 9a) | 1 | -0.814 | 0.502 | 0.932 | inactive |
| CR32511 (pseudo) | 1 | -1.5 | -1.22 | -0.181 | inactive |
| CG30050 | 1 | 0.728 | 1.98 | 0.754 | inactive |

Next part; the last 4 above are carried over.
| gene | reagent | Wolbachia per cell robust z, rep 1 | Wolbachia per cell robust z, rep 2 | Wolbachia per cell robust z, rep 3 | activity call |
| --- | --- | --- | --- | --- | --- |
| Cpr97Ea (Cuticular protein 97Ea) | 2 | 0.0448 | -9.66 | -1.23 | inactive |
| Gr9a (Gustatory receptor 9a) | 1 | -0.814 | 0.502 | 0.932 | inactive |
| CR32511 (pseudo) | 1 | -1.5 | -1.22 | -0.181 | inactive |
| CG30050 | 1 | 0.728 | 1.98 | 0.754 | inactive |
| betaCOP (Coat Protein (coatomer) beta) | 1 | 0.143 | 1.53 | 4.36 | active |
| betaCOP (Coat Protein (coatomer) beta) | 2 | 2.06 | 0.944 | 2.14 | active |
| CG2202 | 1 | 1.41 | 1.84 | -0.973 | inactive |
| CG2202 | 2 | -0.19 | -0.399 | 1.42 | inactive |
| Ptth (Prothoracicotropic hormone) | 1 | 0.47 | -5.02 | -0.781 | inactive |
| RpL4 (Ribosomal protein L4) | 1 | 4.66 | 1.97 | 5.73 | active |
| RpL4 (Ribosomal protein L4) | 2 | 1.31 | 3.19 | 3.13 | active |
| LRR (Leucine-rich repeat) | 1 | -0.726 | -0.193 | -0.2 | inactive |
| LRR (Leucine-rich repeat) | 2 | 1.99 | 0.675 | 0.175 | inactive |
| Sf3b6 (Splicing factor 3b subunit 6) | 1 | -0.816 | 0.00606 | -0.376 | inactive |
| Sf3b6 (Splicing factor 3b subunit 6) | 2 | -0.265 | 3.59 | 4.01 | active |
| GstE8 (Glutathione S transferase E8) | 1 | -1.35 | -0.984 | -1.14 | inactive |
| Drep4 (DNA fragmentation factor-related protein 4) | 1 | 0.207 | -1.7 | -0.343 | inactive |
